Assay results: US20100203559A1 (published 2010)
Where a chain is given by its changes, count along the chain named.

B1: α-SNAP-25 monoclonal antibody 1D3B8 (antibody, V domains shown)
VH: QVKLQESGAELVKPGASVKISCKASGYIFTDHALHWVRQKPEQGLEWIGYIFPGNGNIEYNEKFKGKATLTADKSSSTAYMQLNSLTSGDSAMYFCKKMDYWGQGTTVTVSS
VL: DVLMTQTPLSLPVSLGDQASISCRSSQSIVHSNGNTYLEWYLQKPGQSPKLLIYKVSNRFSGVPDRFSGSGSGTDFTLKISRVEAEDLGVYYCFQGSHVPPTFGAGTKLELKR
B2: α-SNAP-25 monoclonal antibody 2E2A6 (antibody, V domains shown)
VH: QVQLQQSDAELVKPGASVKISCRASGYTFTDHSIHWVKQQPGQGLEWIGYIFPGNGNIEYNDKFKGKATLTADKSSGTAYMQLNSLTSEDSAVYFCKRMGYWGQGTSVTVSS
VL: DVLMTQTPLTLSVTIGQPASISCKSSQSLLYTNGKTYLTWLFQRPGQSPKRLIYLVSELDSGVPDRFSGSGSGTDFTLEITRVEAEDLGVYYCLQSAHFPFTFGSGTKLEIKR
B3: α-SNAP-25 monoclonal antibody 3C1A5 (antibody, V domains shown)
VH: QVKLQESGAELVKPGASVKISCKASGYTFTDHSIHWVKQKPGQGLEWIGYLFPGNGNFEYNEKFKGKATLTADKSSSTVYMYLNSLTSEDSAVYFCKRMGYWGQGTTVTVSS
VL: B2 VL with L3V, Y31N, F42I, K50Q, E58K, E79K, T81S, A97S

The binders below were run against SNAP-25134-206 peptide (human) (assay: SPR (BIAcore 3000), peptide on CM5 chip, antibody as analyte).

Binder	binding result
B1	no binding (tested: 125 nM)
B2	no binding (tested: 10 µM)
B3	no binding (tested: 100 nM)
